Only a part is listed here, and it is no random draw. Some salts or complexes appear as unconnected parts, following the source record. Active and inactive are the calls of the source. Cut-off read from the data, not from the text of the source: active = inhibition above about 12%; inactive = the rest.
assay: growth inhibition of E. coli expressing H. pylori AddAB, primary screen, AddAB inhibitor project, absorbance (AID 435030); conditions: at 11.9 µM, hits give high values;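 note: 0% = vehicle wells of infected cells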

SMILES	inhibition
CCOC(=O)c1ccc(NP(C)(=O)Oc2ccc(F)cc2)cc1 (stereo not given)	inactive: 0.17%
COc1ccc(OP(C)(=O)Nc2ccc(SC(F)(F)F)cc2)cc1 (stereo not given)	inactive: 0.41%
CP(=O)(Nc1ccccc1)Oc1ccc(F)cc1 (stereo not given)	inactive: 3.57%
O=[N+]([O-])c1cc([N+](=O)[O-])c(OC2CCCCC2O)c([N+](=O)[O-])c1 (stereo not given)	inactive: 0%
CCCCCOc1ccc(NP(C)(=O)Oc2ccc(Cl)cc2Cl)cc1 (stereo not given)	inactive: 1.9%
CCN(CC)CCCOC(=O)C(O)(c1ccccc1)C1CCCCC1 (stereo not given)	inactive: -0.66%
CP(=O)(Nc1ccccc1F)Oc1ccccc1 (stereo not given)	inactive: 0.94%
CC(C)c1ccc(OP(C)(=O)Nc2ccc(SC(F)(F)F)cc2)cc1 (stereo not given)	inactive: 4.7%
COc1ccc2c(c1O)-c1c(O)c(OC)cc3c1[C@H](C2)[N+](C)(C)CC3.O=[N+]([O-])c1cc([N+](=O)[O-])c([O-])c([N+](=O)[O-])c1[O-]	inactive: 1.41%
O=C(OC1CN2CCC1CC2)c1ccc([N+](=O)[O-])cc1 (stereo not given)	inactive: 4.64%
O=C(OCCN1CCN(CCOCc2ccccc2)CC1)C(O)(c1ccccc1)c1ccccc1	inactive: 3.9%
CCOP(C)(=S)SCC(=O)NC(C)(CC)C(=O)O (stereo not given)	inactive: 1.15%
CP(=O)(Nc1ccc(SC(F)(F)F)cc1)Oc1ccc(F)cc1 (stereo not given)	inactive: 1.26%
Cc1ccccc1NP(C)(=O)Nc1ccccc1C	inactive: 4.8%
CP(=O)(Nc1ccc2c(c1)OCCO2)Oc1ccccc1 (stereo not given)	inactive: -0.48%
CN(C)CCOC(=O)C(O)(c1ccccc1)C1CCCCC1 (stereo not given)	inactive: -3.52%
COc1ccc(NP(C)(=O)Oc2ccccc2OC)cc1 (stereo not given)	inactive: 2.22%
COc1ccc(OP(C)(=O)Nc2cccc(Br)c2)cc1 (stereo not given)	inactive: -0.41%
O=[N+]([O-])c1cc([N+](=O)[O-])c(NCC2CCS(=O)(=O)C2)c([N+](=O)[O-])c1 (stereo not given)	inactive: 0.17%
CCOC(=O)c1ccc(NP(C)(=O)Oc2ccc(Cl)cc2)cc1 (stereo not given)	inactive: 3.07%
CP(=O)(OC12CC3CC(CC(C3)C1)C2)OC12CC3CC(CC(C3)C1)C2	inactive: 1.66%
Nc1ccc2c(ccc3cccnc32)n1.O=[N+]([O-])c1cc([N+](=O)[O-])c(O)c([N+](=O)[O-])c1	inactive: 2.98%
COc1ccccc1OP(C)(=O)Nc1c(C)n(C)n(-c2ccccc2)c1=O (stereo not given)	inactive: 1.76%
O=C(OCCCN1CCCC1)C(O)(c1ccccc1)C1CCCCC1 (stereo not given)	inactive: -1.55%
CP(=O)(Oc1ccccc1)N1CCOC1=O (stereo not given)	inactive: 0.57%

From PubChem BioAssay AID435030 (The Scripps Research Institute Molecular Screening Center, 2010)
